Assay results published in US10646469B2, “Substituted indole derivatives as dengue viral replication inhibitors” (Janssen Pharmaceuticals, Inc., priority 2016, dated 2020).

Assays:
Type in all cases: cell-based, Dengue virus
DENV-2 16681 strain = test: DENV-2 antiviral assay (eGFP-labeled virus in Vero cells); settings: SI=CC50/EC50, DENV-2 antiviral assay
Description: The antiviral activity of all the compounds of the invention was tested against the DENV-2 16681 strain which was labeled with enhanced green fluorescent protein (eGPF). The culture medium consists of minimal essential medium supplemented with 2% of heat-inactivated fetal calf serum, 0.04% gentamycin (50 mg/mL) and 2 mM of L-glutamine. Vero cells, obtained from ECACC, were suspended in culture medium and 25 μL was added to 384-well plates (2500 cells/well), which already contain the antiviral compounds. Typically, these plates contain a 5-fold serial dilution of 9 dilution steps of the test compound at 200 times the final concentration in 100% DMSO (200 nL). […] Finally, each plate contains wells which are assigned as virus controls (containing cells and virus in the absence of compound), cell controls (containing cells in the absence of virus and compound) and medium controls (containing medium in the absence of cells, virus and compounds). To the wells assigned as medium control, 25 μL of culture medium was added instead of Vero cells. Once the cells were added to the plates, the plates were incubated for 30 minutes at room temperature to allow the cells to distribute evenly within the wells. Next, the plates were incubated in a fully humidified incubator (37° C., 5% CO2) until the next day. Then, DENV-2 strain 16681, labeled with eGFP, was added at a multiplicity of infection (MOI) of 0.5. Therefore, 15 μL of virus suspension was added to all the wells containing test compound and to the wells assigned as virus control. In parallel, 15 μL of culture medium was added to the medium and cell controls. Next, the plates were incubated for 3 days in a fully humidified incubator (37° C., 5% CO2). At the day of the read out, the eGFP fluorescence was measured using an automated fluorescence microscope at 488 nm (blue laser). Using an in-house LIMS system, inhibition dose response curves for each compound were calculated and the half maximal effective concentration (EC50) was determined. Therefore, the percent inhibition (I) for every test concentration is calculated using the following formula: I=100*([…])/(SVC−SCC); ST, SCC and SVC are the amount of eGFP signal in the test compound, cell control and virus control wells, respectively. The EC50 represents the concentration of a compound at which the virus replication is inhibited with 50%, as measured by a 50% reduction of the eGFP fluorescent intensity compared to the virus control. The EC50 is calculated using linear interpolation (Table 1).

DENV-1 strain TC974 #666 = test: Tetravalent RT-qPCR assay, serotype 1; settings: RT-qPCR serotype 1 TC974#666, Protocol A
Description: (§1) The antiviral activity of the compounds of the invention was tested against DENV-1 strain TC974 #666 (NCPV), DENV-2 strain 16681, DENV-3 strain H87 (NCPV) and DENV-4 strain H241 (NCPV) in a RT-qPCR assay. Therefore, Vero cells were infected with either DENV-1, or -2, or -3, or -4 in the presence or absence of test compounds. At day 3 post-infection, the cells were lysed and cell lysates were used to prepare cDNA of both a viral target (the 3′UTR of DENV; Table 2) and cellular reference gene (β-actin, Table 2). Subsequently, a duplex real time PCR was performed on a Lightcycler480 instrument. The generated Cp value is inversely proportional to the amount of RNA expression of these targets. Inhibition of DENV replication by a test compound results in a shift of Cp's for the 3′UTR gene. On the other hand, if a test compound is toxic to the cells, a similar effect on β-actin expression will be observed. The comparative ΔΔCp method is used to calculate EC50, which is based on the relative gene expression of the target gene (3′UTR) normalized with the cellular housekeeping gene (β-actin). In addition, CC50 values are determined based on the Cp values acquired for the housekeeping gene β-actin.
(§2) The culture medium consisted of minimal essential medium supplemented with 2% of heat-inactivated fetal calf serum, 0.04% gentamycin (50 mg/mL) and 2 mM of L-glutamine. Vero cells, obtained from ECACC, were suspended in culture medium and 75 μL/well was added in 96-well plates (10000 cells/well), which already contain the antiviral compounds. […] In addition, each plate contains wells which are assigned as virus controls (containing cells and virus in the absence of compound) and cell controls (containing cells in the absence of virus and compound). Once the cells were added in the plates, the plates were incubated in a fully humidified incubator (37° C., 5% CO2) until the next day. Dengue viruses serotype-1, 2, 3 and 4 were diluted in order to obtain a Cp of ˜22-24 in the assay. Therefore, 25 μL of virus suspension was added to all the wells containing test compound and to the wells assigned as virus control. In parallel, 25 μL of culture medium was added to the cell controls. Next, the plates were incubated for 3 days in a fully humidified incubator (37° C., 5% CO2). After 3 days, the supernatant was removed from the wells and the cells were washed twice with ice-cold PBS (˜100 μL). The cell pellets within the 96-well plates were stored at −80° C. for at least 1 day. Next, RNA was extracted using the Cells-to-CT™ lysis kit, according to the manufacturer's guideline (Life Technologies). The cell lysates can be stored at −80° C. or immediately used in the reverse transcription step.
(§3) In preparation of the reverse transcription step, mix A (table 3A) was prepared and 7.57 μL/well was dispensed in a 96-well plate. After addition of 5 μL of the cell lysates, a five minute denaturation step at 75° C. was performed (table 3B). Afterwards, 7.43 μL of mix B was added (table 3C) and the reverse transcription step was initiated (table 3D) to generate cDNA.
(§4) Finally, a RT-qPCR mix was prepared, mix C (table 4A), and 22.02 μL/well was dispensed in 96-well LightCycler qPCR plates to which 3 μL of cDNA was added and the qPCR was performed according to the conditions in table 4B on a LightCycler 480.
(§5) Using the LightCycler software and an in-house LIMS system, dose response curves for each compound were calculated and the half maximal effective concentration (EC50) and the half maximal cytotoxic concentration (CC50) were determined (Tables 5-8).

DENV-2 strain 16681 = test: Tetravalent RT-qPCR assay, serotype 2; settings: RT-qPCR serotype 2 16681, Protocol A
Description: as §1, §2, §3, §4, §5

DENV-3 strain H87 = test: Tetravalent RT-qPCR assay, serotype 3; settings: RT-qPCR serotype 3 H87, Protocol A
Description: as §1, §2, §3, §4, §5

DENV-4 strain H241 = test: Tetravalent RT-qPCR assay, serotype 4; settings: RT-qPCR serotype 4 H241, Protocol A; ratio CC50 / EC50
Description: as §1, §2, §3, §4, §5

COc1cc(NC(C(=O)c2c[nH]c3ccc(C(F)(F)F)cc23)c2ccc(F)cc2OC)cc(OCCO)c1 (single isomer, unassigned) [Compound 1B, 2-(4-fluoro-2-methoxyphenyl)-2-((3-(2-hydroxyethoxy)-5-methoxyphenyl)amino)-1-(5-(trifluoromethyl)-1H-indol-3-yl)ethanone]
SI (DENV-2 16681 strain): 4840
SI (DENV-1 strain TC974 #666): 2360
SI (DENV-2 strain 16681): 7070
SI (DENV-3 strain H87): 241
SI (DENV-4 strain H241): 48

COc1cc(NC(C(=O)c2c[nH]c3cc(OC)c(C(F)(F)F)cc23)c2ccc(F)cc2OC)cc(OCCO)c1 (single isomer, unassigned) [Compound 2A, 2-(4-fluoro-2-methoxyphenyl)-2-((3-(2-hydroxyethoxy)-5-methoxyphenyl)amino)-1-(6-methoxy-5-(trifluoromethyl)-1H-indol-3-yl)ethanone]
SI (DENV-2 16681 strain): 8240
SI (DENV-1 strain TC974 #666): >2130
SI (DENV-2 strain 16681): >10100
SI (DENV-3 strain H87): >158
SI (DENV-4 strain H241): >34

COc1cc(NC(C(=O)c2c[nH]c3cc(F)c(C(F)(F)F)cc23)c2ccc(F)cc2OC)cc(OCCO)c1 (single isomer, unassigned) [Compound 3A, 2-(4-fluoro-2-methoxyphenyl)-1-(6-fluoro-5-(trifluoromethyl)-1H-indol-3-yl)-2-((3-(2-hydroxyethoxy)-5-methoxyphenyl)amino)ethanone]
SI (DENV-2 16681 strain): 5050
SI (DENV-1 strain TC974 #666): >2880
SI (DENV-2 strain 16681): >5460
SI (DENV-3 strain H87): >203
SI (DENV-4 strain H241): >63

COc1cc(NC(C(=O)c2c[nH]c3c(C)cc(C(F)(F)F)cc23)c2ccc(F)cc2OC)cc(OCCO)c1 (single isomer, unassigned) [Compound 4B, 2-(4-fluoro-2-methoxyphenyl)-2-((3-(2-hydroxyethoxy)-5-methoxyphenyl)amino)-1-(7-methyl-5-(trifluoromethyl)-1H-indol-3-yl)ethanone]
SI (DENV-2 16681 strain): 7070
SI (DENV-1 strain TC974 #666): >3960
SI (DENV-2 strain 16681): 14000
SI (DENV-3 strain H87): >317
SI (DENV-4 strain H241): >41

COc1cc(NC(C(=O)c2c[nH]c3ccc(OC(F)(F)F)cc23)c2ccc(F)cc2OC)cc(OCCO)c1 (single isomer, unassigned) [Compound 5B, 2-(4-fluoro-2-methoxyphenyl)-2-((3-(2-hydroxyethoxy)-5-methoxyphenyl)amino)-1-(5-(trifluoromethoxy)-1H-indol-3-yl)ethanone]
SI (DENV-2 16681 strain): >9300
SI (DENV-1 strain TC974 #666): >3410
SI (DENV-2 strain 16681): >7530
SI (DENV-3 strain H87): >425
SI (DENV-4 strain H241): 34

COc1cc(NC(C(=O)c2c[nH]c3cc(OC)c(OC(F)(F)F)cc23)c2ccc(F)cc2OC)cc(OCCO)c1 (single isomer, unassigned) [Compound 6A, 2-(4-fluoro-2-methoxyphenyl)-2-((3-(2-hydroxyethoxy)-5-methoxyphenyl)amino)-1-(6-methoxy-5-(trifluoromethoxy)-1H-indol-3-yl)ethanone]
SI (DENV-2 16681 strain): >7560
SI (DENV-1 strain TC974 #666): 910
SI (DENV-2 strain 16681): 6430
SI (DENV-3 strain H87): >312
SI (DENV-4 strain H241): 19

COc1cc(NC(C(=O)c2c[nH]c3cc(F)c(OC(F)(F)F)cc23)c2ccc(F)cc2OC)cc(OCCO)c1 (single isomer, unassigned) [Compound 7B, 2-(4-fluoro-2-methoxyphenyl)-1-(6-fluoro-5-(trifluoromethoxy)-1H-indol-3-yl)-2-((3-(2-hydroxyethoxy)-5-methoxyphenyl)amino)ethanone]
SI (DENV-2 16681 strain): 4580
SI (DENV-1 strain TC974 #666): >5240
SI (DENV-2 strain 16681): >8710
SI (DENV-3 strain H87): >460
SI (DENV-4 strain H241): 40

COc1cc(NC(C(=O)c2c[nH]c3c(C)cc(OC(F)(F)F)cc23)c2ccc(F)cc2OC)cc(OCCO)c1 (single isomer, unassigned) [Compound 8A, 2-(4-fluoro-2-methoxyphenyl)-2-((3-(2-hydroxyethoxy)-5-methoxyphenyl)amino)-1-(7-methyl-5-(trifluoromethoxy)-1H-indol-3-yl)ethanone]
SI (DENV-2 16681 strain): 8380
SI (DENV-1 strain TC974 #666): 3010
SI (DENV-2 strain 16681): >10700
SI (DENV-3 strain H87): 530
SI (DENV-4 strain H241): 58

COc1cc(NC(C(=O)c2c[nH]c3ccc(C(F)(F)F)cc23)c2ccc(Cl)cc2OC)cc(OCCO)c1 (single isomer, unassigned) [Compound 9B, 2-(4-chloro-2-methoxyphenyl)-2-((3-(2-hydroxyethoxy)-5-methoxyphenyl)amino)-1-(5-(trifluoromethyl)-1H-indol-3-yl)ethanone]
SI (DENV-2 16681 strain): >20100
SI (DENV-1 strain TC974 #666): >3440
SI (DENV-2 strain 16681): >13300
SI (DENV-3 strain H87): 456
SI (DENV-4 strain H241): 62

COc1cc(NC(C(=O)c2c[nH]c3cc(OC)c(OC(F)(F)F)cc23)c2ccc(Cl)cc2OC)cc(OCCO)c1 (single isomer, unassigned) [Compound 14B, 2-(4-chloro-2-methoxyphenyl)-2-((3-(2-hydroxyethoxy)-5-methoxyphenyl)amino)-1-(6-methoxy-5-(trifluoromethoxy)-1H-indol-3-yl)ethanone]
SI (DENV-2 16681 strain): 754

COc1cc(NC(C(=O)c2c[nH]c3cc(F)c(OC(F)(F)F)cc23)c2ccc(Cl)cc2OC)cc(OCCO)c1 (single isomer, unassigned) [Compound 15A, 2-(4-chloro-2-methoxyphenyl)-1-(6-fluoro-5-(trifluoromethoxy)-1H-indol-3-yl)-2-((3-(2-hydroxyethoxy)-5-methoxyphenyl)amino)ethanone]
SI (DENV-2 16681 strain): 386

COc1cc(NC(C(=O)c2c[nH]c3c(C)cc(OC(F)(F)F)cc23)c2ccc(Cl)cc2OC)cc(OCCO)c1 (single isomer, unassigned) [Compound 16B, 2-(4-chloro-2-methoxyphenyl)-2-((3-(2-hydroxyethoxy)-5-methoxyphenyl)amino)-1-(7-methyl-5-(trifluoromethoxy)-1H-indol-3-yl)ethanone]
SI (DENV-2 16681 strain): 236
